Pooled drug test results. Numbers come from NIAID ChemDB, via PubChem.

Shared fields: target-level tests; species: HIV-1; protein: Protease; endpoint: inhibition

Neighbouring rows are from separate reports. An empty or dashed field is not shown. Percent inhibition refers to the dose given; in toxicity tests it is the harm to the cells.

compound	tested at	read by	value
O=c1[nH]c2ccccc2cc1CNC1CCCCC1	20 µM	substrate cleavage / fluorescence	-37.8%
O=C([C@@H]1O[C@]2(c3ccccc3)CN(C(c3ccccc3)c3ccccc3)C(=O)[C@H]1O2)N1CCN(CCO)CC1	1 µM	FRET	0%
O=C(c1ccccc1)N(Cc1cc2ccccc2[nH]c1=O)C1CCCCC1	20 µM	substrate cleavage / fluorescence	-17.9%
CC(C)[C@H](NC(=O)CCCCCC(=O)N[C@H](C(=O)OCc1ccccc1)C(C)C)C(=O)OCc1ccccc1	10 µM	absorbance	<10%
CC[C@H](C)[C@H](NC(=O)OC(C)(C)C)C(=O)N[C@H]1[C@@H](CC(=O)N[C@@H](CC(C)C)C(=O)OC)CC[C@@H]1O	10 µM	absorbance	8%
O=C1CC(c2ccc(O)cc2)Oc2cc(O)cc(O)c21	1000 µg/mL	substrate cleavage / fluorescence	89.3%
CC(C[C@@H](O)[C@H](O)C(C)(C)O)[C@@H]1CC[C@]2(C)C3=CCC4C(C)(C)C(O)CC[C@]4(C)C3CC[C@@]12C	100 µg/mL	substrate cleavage / fluorescence	44.5%
O=C(N[C@@H](Cc1ccccc1)[C@H](O)[C@H](O)[C@@H](Cc1ccccc1)NC(=O)c1ccccc1O)c1ccccc1O	10 µM	substrate cleavage	32%
CC(C[C@H]1OC(C)(C)O[C@@H]1C(C)(C)O)[C@@H]1CC[C@]2(C)C3=CCC4C(C)(C)C(=O)C[C@]4(C)C3CC[C@@]12C	100 µg/mL	substrate cleavage / fluorescence	-2.07%
CCC(C)(C)NC(=O)[C@@H]1CCCN1C(=O)[C@@H](O)[C@H](Cc1ccccc1)NC(=O)[C@H](CC(N)=O)NC(=O)OCc1ccccc1	5 µM	-	94.2%
CO[C@@H]([C@@H](CC(C)[C@@H]1CC[C@]2(C)C3=CCC4C(C)(C)C(OC(=O)CC(C)(C)C(=O)O)CC[C@]4(C)C3CC[C@@]12C)OC(C)(C)C)C(C)(C)O	100 µg/mL	substrate cleavage / fluorescence	58.1%
CC(C)(C)OC(=O)N1C2C3(CO)C(c4ccccc4)C4(CO)C1C1(CO)C(c5ccccc5)C2(CO)C3N(C(=O)OC(C)(C)C)C41	25 µM	absorbance	49%
CCOC(=O)[C@@]1(C)CC[C@]2(C)CC[C@]3(C)C(=CC(=O)[C@@H]4[C@@]5(C)CC/C(=N\OCc6ccc7ccccc7c6)C(C)(C)[C@@H]5CC[C@]43C)[C@@H]2C1	1000 µg/mL	substrate cleavage / fluorescence	29%
COc1ccc2[nH]c(=O)c(CN(C(=O)c3ccccc3)C3CCCC3)cc2c1	20 µM	substrate cleavage / fluorescence	-20%
CC(C[C@@H](OC(=O)CC(C)(C)C(=O)O)[C@H](OC(=O)CC(C)(C)C(=O)O)C(C)(C)O)[C@@H]1CC[C@]2(C)C3=CCC4C(C)(C)C(OC(=O)CC(C)(C)C(=O)O)CC[C@]4(C)C3CC[C@@]12C	100 µg/mL	substrate cleavage / fluorescence	62%
CN1CCN(C(=O)[C@@H]2O[C@H]3O[C@@H]2C(=O)N(Cc2ccccc2)[C@@H]3Cc2ccccc2)CC1	1 µM	FRET	0%
CCOC(=O)[C@@]1(C)CC[C@]2(C)CC[C@]3(C)C(=CC(=O)[C@@H]4[C@@]5(C)CC/C(=N\OCc6ccc(F)cc6)C(C)(C)[C@@H]5CC[C@]43C)[C@@H]2C1	1000 µg/mL	substrate cleavage / fluorescence	53.6%
CC(C)(C)NC(=O)[C@@H]1CCCN1C(=O)[C@@H](O)[C@H](CC1CCCCC1)NC(=O)[C@H](CC(N)=O)NC(=O)OCC1c2ccccc2-c2ccccc21	0.05 µM	-	46.5%
CC(=O)O[C@H](CC(C)[C@@H]1CC[C@]2(C)C3=CCC4C(C)(C)C(=O)CC[C@]4(C)C3CC[C@@]12C)[C@H](OC(C)=O)C(C)(C)OC(C)=O	100 µg/mL	substrate cleavage / fluorescence	35.5%
CC[C@@H](C)[C@H](NC(=O)[C@@H]1CCCN1C(=O)[C@@H](O)[C@H](Cc1ccccc1)NC(=O)[C@H](CC(N)=O)NC(=O)CCc1ccccc1)C(N)=O	5 µM	-	43%
CC(C)C[C@@H](C(=O)NCCc1ccccc1)N1C[C@@H]2O[C@H](C(=O)N3CCCCC3)[C@@H](O2)C1=O	10 µM	FRET	0%
CC(C)C[C@H](NC(=O)C[C@@H]1CC[C@H](NC(=O)[C@H](Cc2ccccc2)NC(=O)[C@@H](NC(=O)OCc2ccccc2)C(C)C)[C@H]1O)C(=O)NC(C)(C)C	10 µM	absorbance	0%
CCOC(=O)[C@@]1(C)CC[C@]2(C)CC[C@]3(C)C(=CC(=O)[C@@H]4[C@@]5(C)CC/C(=N\OCc6cccc(C#N)c6)C(C)(C)[C@@H]5CC[C@]43C)[C@@H]2C1	1000 µg/mL	substrate cleavage / fluorescence	28.1%
CC[C@H](C)[C@H](NC(=O)OC(C)(C)C)C(=O)N[C@@H]1[C@H](CC(=O)N[C@@H](CC(C)C)C(=O)OC)CC[C@H]1O	10 µM	absorbance	18%
CCOC(=O)[C@@]1(C)CC[C@]2(C)CC[C@]3(C)C(=CC(=O)[C@@H]4[C@@]5(C)CC/C(=N\OCc6cnc(Cl)s6)C(C)(C)[C@@H]5CC[C@]43C)[C@@H]2C1	1000 µg/mL	substrate cleavage / fluorescence	20.9%
COc1c(O)cc2oc(-c3ccc(O)cc3)cc(=O)c2c1O	1000 µg/mL	substrate cleavage / fluorescence	86%
CC(C)[C@H](NC(=O)[C@H](Cc1ccccc1)NC(=O)N[C@@H](Cc1ccccc1)C(=O)N[C@H](C(=O)O)C(C)C)C(=O)O	10 µM	absorbance	<10%
COc1cccc2cc(CN(C(=O)c3ccccc3)C3CCCCC3)c(=O)[nH]c12	20 µM	substrate cleavage / fluorescence	-15.6%
COC(=O)N1C2C3(CO)C(c4ccc(OC)cc4)C4(CO)C1C1(CO)C(c5ccc(OC)cc5)C2(CO)C3N(C(=O)OC)C41	50 µM	absorbance	9%
CC(C)COC(=O)[C@H](CC1CCCCC1)NC(=O)C(=O)N[C@@H](CC1CCCCC1)C(=O)OCC(C)C	10 µM	absorbance	<10%
COC(=O)[C@@H](NC(=O)C[C@H]1CC[C@@H](NC(=O)[C@H](Cc2ccccc2)NC(=O)OC(C)(C)C)[C@@H]1O)C(C)C	10 µM	absorbance	8%
CCOC(=O)[C@@]1(C)CC[C@]2(C)CC[C@]3(C)C(=CC(=O)[C@@H]4[C@@]5(C)CC/C(=N\OCc6c(C)noc6C)C(C)(C)[C@@H]5CC[C@]43C)[C@@H]2C1	1000 µg/mL	substrate cleavage / fluorescence	17.1%
CC[C@@H](C)[C@H](NC(=O)[C@@H]1CCCN1C(=O)[C@@H](O)[C@H](CC1CCCCC1)NC(=O)[C@H](CC(N)=O)NC(=O)c1cnccn1)C(=O)N[C@H](C(N)=O)C(C)C	5 µM	-	93.8%
CC(C[C@@H](OC(=O)CC(C)(C)C(=O)O)[C@H](OC(=O)CC(C)(C)C(=O)O)C(C)(C)O)[C@@H]1CC[C@]2(C)C3=CCC4C(C)(C)C(=O)CC[C@]4(C)C3CC[C@@]12C	100 µg/mL	substrate cleavage / fluorescence	49.8%
CC[C@@H](C)[C@H](NC(=O)[C@@H]1CCCN1C(=O)[C@@H](O)[C@H](Cc1ccccc1)NC(=O)[C@H](CC(=O)N(C)C)NC(=O)CCc1ccccc1)C(=O)N[C@H](C(N)=O)C(C)C	5 µM	-	23.5%
O=C1[C@H]2O[C@@H](CN1Cc1ccccc1)O[C@H]2C(=O)N1CCC[C@H]1CO	10 µM	FRET	0%
O=C(Cc1ccccc1)N1C2C3(CO)C(c4ccccc4)C4(CO)C1C1(CO)C(c5ccccc5)C2(CO)C3N(C(=O)Cc2ccccc2)C41	50 µM	absorbance	52%
O=C(O)[C@@H]1O[C@@H](Oc2cc3oc(-c4ccc(O)cc4)cc(=O)c3c(O)c2O)[C@@H](O)[C@H](O)[C@H]1O	1000 µg/mL	substrate cleavage / fluorescence	56.2%
CCOC(=O)[C@@]1(C)CC[C@]2(C)CC[C@]3(C)C(=CC(=O)[C@@H]4[C@@]5(C)CC/C(=N\OCc6cc(C)nn6C)C(C)(C)[C@@H]5CC[C@]43C)[C@@H]2C1	1000 µg/mL	substrate cleavage / fluorescence	36.2%
CC(C)[C@H](N)C(=O)N[C@H](C(=O)N[C@@H](Cc1ccccc1)[C@H](O)C(=O)N[C@@H](Cc1ccccc1)C(=O)N[C@H](C(=O)N[C@H](C(N)=O)C(C)C)C(C)C)C(C)C	1000 µM	-	94.9%
COc1ccc(C2C3(CO)C4N(C(=O)OC(C)(C)C)C5C2(CO)C2N(C(=O)OC(C)(C)C)C3C4(CO)C(c3ccc(OC)cc3)C52CO)cc1	50 µM	absorbance	32%
CS(=O)(=O)C[C@H](NC(=O)COc1cccc2ccccc12)C(=O)N[C@@H](Cc1ccccc1)[C@H](O)C(=O)N1CCC[C@H]1C(=O)Nc1ccccc1O	0.05 µM	-	3.3%
COc1cccc2cc(CNC3CC3)c(=O)[nH]c12	20 µM	substrate cleavage / fluorescence	-12.8%
CCOC(=O)[C@@]1(C)CC[C@]2(C)CC[C@]3(C)C(=CC(=O)[C@@H]4[C@@]5(C)CC/C(=N\OCc6ccccc6Cl)C(C)(C)[C@@H]5CC[C@]43C)[C@@H]2C1	1000 µg/mL	substrate cleavage / fluorescence	21.5%
CC[C@H](C)[C@H](NC(=O)OC(C)(C)C)C(=O)N[C@H]1CC[C@@H](CC(=O)N[C@@H](CC(C)C)C(=O)OC)[C@@H]1O	10 µM	absorbance	24%
CCOC(=O)[C@@]1(C)CC[C@]2(C)CC[C@]3(C)C(=CC(=O)[C@@H]4[C@@]5(C)CC/C(=N\OCc6ccc(C#N)cc6)C(C)(C)[C@@H]5CC[C@]43C)[C@@H]2C1	1000 µg/mL	substrate cleavage / fluorescence	23.4%
O=C(Oc1ccccc1)N1C2C3(CO)C(c4ccccc4)C4(CO)C1C1(CO)C(c5ccccc5)C2(CO)C3N(C(=O)Oc2ccccc2)C41	25 µM	absorbance	17%
COc1ccc2[nH]c(=O)c(CNC3CCCCC3)cc2c1	20 µM	substrate cleavage / fluorescence	-44.7%

A second listing of 5 rows from above:

| compound | tested at | read by | value |
|---|---|---|---|
| CC(C)(C)NC(=O)[C@@H]1CCCN1C(=O)[C@@H](O)[C@H](CC1CCCCC1)NC(=O)[C@H](CC(N)=O)NC(=O)OCC1c2ccccc2-c2ccccc21 | 0.05 µM | - | 46.5% |
| CC[C@H](C)[C@H](NC(=O)OC(C)(C)C)C(=O)N[C@@H]1[C@H](CC(=O)N[C@@H](CC(C)C)C(=O)OC)CC[C@H]1O | 10 µM | absorbance | 18% |
| O=C(c1ccccc1)N(Cc1cc2ccccc2[nH]c1=O)C1CCCCC1 | 20 µM | substrate cleavage / fluorescence | -17.9% |
| COc1ccc(C2C3(CO)C4N(C(=O)OC(C)(C)C)C5C2(CO)C2N(C(=O)OC(C)(C)C)C3C4(CO)C(c3ccc(OC)cc3)C52CO)cc1 | 50 µM | absorbance | 32% |
| O=C(O)[C@@H]1O[C@@H](Oc2cc3oc(-c4ccc(O)cc4)cc(=O)c3c(O)c2O)[C@@H](O)[C@H](O)[C@H]1O | 1000 µg/mL | substrate cleavage / fluorescence | 56.2% |